A mixed list of measured activities; the numbers were collected in NIAID ChemDB.

Common to all: enzyme or target tests; agent: HIV-1; protein: Reverse transcriptase

Fold resistance has wild type as its base.

c1ccc2c(c1)CCN(c1nn3c(-c4cscn4)nnc3c3ccccc13)C2 ; read-out: IC90 ; method: RT activity / fluorescence ; strain or isolate: IIIB ; value: 3.26 µM
Cc1ccc(-n2nnnc2SCC(=O)Nc2ccc(-c3cccc(C(=O)O)c3)cc2Cl)c(Cl)c1 ; read-out: IC50 ; method: PicoGreen / fluorescence ; strain or isolate: WT ; value: <1 µM
CCN1c2ncc(CCOc3ccc(-c4ccc(CC(=O)O)cc4)cc3C)cc2C(=O)N(C)c2cccnc21 ; read-out: fold resistance ; method: nucleotide incorporation / radiometric ; changes: RT-K103N Y181C ; strain or isolate: IIIB ; value: 1
CC(C)(C#Cc1ccc(NC(=O)CSc2nnnn2-c2cccc(Cl)c2Cl)c(Cl)c1)C(=O)O ; read-out: IC50 ; method: PicoGreen / fluorescence ; changes: RT-K103 Y181C ; value: <1 µM
CCN1c2ncc(CCOc3ccc(CC(=O)O)c4ccccc34)cc2C(=O)Nc2c(C)cc(Cl)nc21 ; read-out: fold resistance ; method: nucleotide incorporation / radiometric ; changes: RT-V106A ; value: 1–10
COc1ccc2c(c1)CN(c1nn3c(-c4cccs4)nnc3c3ccccc13)CC2 ; read-out: IC50 ; method: RT activity / fluorescence ; strain or isolate: 98US_MSC5016 ; value: 51.3 µM
CN(C)CCNC(=O)COC(C)(C)C#Cc1ccc(NC(=O)CSc2nnnn2-c2ccc(C(C)(C)C)cc2Cl)c(Cl)c1 ; read-out: IC50 ; method: PicoGreen / fluorescence ; changes: RT-K103 Y181C ; value: <1 µM
CCN1c2ncc(CCOc3ccc(C(=O)Nc4ccc[n+]([O-])c4)cc3C)cc2C(=O)N(C)c2cccnc21 ; read-out: fold resistance ; method: nucleotide incorporation / radiometric ; changes: RT-K103N Y181C ; strain or isolate: IIIB ; value: 1
FC(F)c1nnc2c3ccccc3c(N3CCc4ccccc4C3)nn12 ; read-out: IC90 ; method: RT activity / fluorescence ; strain or isolate: 98US_MSC5016 ; value: 1.61 µM
CC(C)(C#Cc1ccc(NC(=O)CSc2nnnn2-c2ccc(C(C)(C)C)cc2Cl)c(Cl)c1)COC(N)=O ; read-out: IC50 ; method: PicoGreen / fluorescence ; changes: RT-K103 Y181C ; value: <1 µM
CCN1c2ncc(CCOc3ccc(/C=C(\C)C(=O)O)c4ccccc34)cc2C(=O)Nc2c(C)cc(Cl)nc21 ; read-out: fold resistance ; method: nucleotide incorporation / radiometric ; changes: RT-V106A ; value: 1–10
CCc1cc(CCc2nc3ccccc3o2)c(=O)[nH]c1C ; read-out: fold resistance ; method: nucleotide incorporation ; changes: RT-Y181I ; value: >7600
CCN1c2ncc(CCOc3ccc(C(=O)O)c4ccccc34)cc2C(=O)N(C)c2ccc(C)nc21 ; read-out: fold resistance ; method: nucleotide incorporation / radiometric ; changes: RT-K103N Y181C ; value: 1–10
CN(C)S(=O)(=O)NC(=O)C(C)(C)C#Cc1ccc(NC(=O)CSc2nnnn2-c2ccc(C3CC3)cc2Cl)c(Cl)c1 ; read-out: IC50 ; method: PicoGreen / fluorescence ; changes: RT-K103 Y181C ; value: <1 µM
CCN1c2ncc(CCOc3ccc(-c4nc(C(=O)O)cs4)cc3)cc2C(=O)N(C)c2cccnc21 ; read-out: fold resistance ; method: nucleotide incorporation / radiometric ; changes: RT-K103N Y181C ; strain or isolate: IIIB ; value: >2
CCN1c2ncc(CCOc3ccc(CC(=O)NN)c4ccccc34)cc2C(=O)N(C)c2cccnc21 ; read-out: fold resistance ; method: nucleotide incorporation / radiometric ; changes: RT-Y188L ; value: 1–10
CCN1c2ncc(CCOc3ccc(-c4ccc(N)nc4C)cc3C)cc2C(=O)N(C)c2cccnc21 ; read-out: fold resistance ; method: nucleotide incorporation / radiometric ; changes: RT-K103N Y181C ; strain or isolate: IIIB ; value: 1
Cc1nnc2c3ccccc3c(N3CCC4CCCCC4C3)nn12 ; read-out: IC90 ; method: RT activity / fluorescence ; strain or isolate: KER2008 ; value: 58.2 µM
CC(C)(C#Cc1ccc(NC(=O)CSc2nnnn2-c2ccc(C3CC3)cc2Cl)c(Cl)c1)C(=O)NS(=O)(=O)C1CC1 ; read-out: IC50 ; method: PicoGreen / fluorescence ; strain or isolate: WT ; value: <1 µM
CCN1c2ncc(CCOc3ccc(/C=C(\C)C(=O)O)c4ccccc34)cc2C(=O)N(C)c2ccc(F)nc21 ; read-out: fold resistance ; method: nucleotide incorporation / radiometric ; changes: RT-V106A ; value: >10
COC(=O)c1ccc2c(c1)CN(c1nn3c(C)nnc3c3ccccc13)CC2 ; read-out: IC90 ; method: RT activity / fluorescence ; strain or isolate: IIIB ; value: 8.03 µM
CNS(=O)(=O)c1ccc(NC(=O)CSc2nnnn2-c2ccc(C(C)(C)C)cc2Cl)c(Cl)c1 ; read-out: IC50 ; method: PicoGreen / fluorescence ; changes: RT-K103 Y181C ; value: <1 µM

Lines come from different laboratories, so protocols vary. a–b is a range or a potency band. ICn: concentration for n% inhibition.